In article PMC12167710 (Nature Biotechnology, 2024) one finds EC50 data, which are given here for 2 molecules.

The target in this experiment is T1, receptor-binding domain (RBD) of the wild-type SARS-CoV-2 spike protein (SARS-CoV-2, UniProt P0DTC2 333-527).
T1 construct: also called SARS-CoV-2 RBD
The experiment is described as follows: ELISA. The note with it: both partners purified. For orientation: ELISA stands for enzyme-linked immunosorbent assay.

B1: mRBD14 (antibody, V domains shown)
VH: EVKLVESGGGLVQPGGSLSLSCAASGFTFTDYYMSWVRQPPGKALEWLGFIRNKANGYTTEYSASVKGRFTISRDNSQSILYLQMNALRAEDSATYYCARYIRTGWYFDVWGTGTTVTVSS
VL: DIVMTQSQKFMSTSVRDRVSITCKASQNVRTAVAWYQQKPGQSPKALIYLASNRHTGVPDRFTGSGSGTDFTLTISNVQSEDLADYFCLQHWNYPWTFGGGTKLEIK
What is called EC50 is the concentration that produces a half-maximal response. Lower therefore signals a more potent agent. In the case of B1, the EC50 worked out at 240 pM. In other words, the sub-nanomolar range.

B2: mRBD7 (antibody, V domains shown)
VH: QVQLKQSGAELVRPGASVKLSCKASGYTFTDYYINWVKQRPGQGLEWIARIYPGSGNTYYNEKFKGKATLTAEKSSSTAYMQLSSLTSEDSAVYFCARYPLYDYDEEDYFDYWGQGTTLTVSS
VL: DIQMTQTTSSLSASLGDRVTISCRASQDISNYLNWYQQKPDGTVKLLIYYTSRLHSGVPSRFSGSGSGTDYSLTISNLEQEDIATYFCQQGNTLPYTFGGGTKLEIK
Molecule B2 yielded an EC50 of 620 pM.
